Replication capacity of HIV-1 mutants, Vif

Reference: Al-Mawsawi et al. 2014, doi:10.1186/s12977-014-0124-6.

Protein: Vif of HIV-1 NL4-3, numbered from its first residue. The source prints no sequence; the chain below is taken from UniProt P12504, a closely related isolate, and fits the source at the 145 positions it covers.
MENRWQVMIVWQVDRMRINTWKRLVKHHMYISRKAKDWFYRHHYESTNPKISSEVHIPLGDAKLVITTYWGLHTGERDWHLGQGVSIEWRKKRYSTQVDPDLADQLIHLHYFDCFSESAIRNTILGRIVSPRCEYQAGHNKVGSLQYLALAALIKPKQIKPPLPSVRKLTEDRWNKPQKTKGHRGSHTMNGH
"Other frame" gives the effect on an overlapping gene as the source lists it; other overlaps (genes, RNA elements) are not shown.

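Random point mutant libraries of HIV-1 NL4-3, one for each of seven fragments, were passaged in CEM T lymphocytes. The RC index is the frequency of a change after passage round 2 divided by its frequency in the plasmid library.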

Values are the RC index; higher means better tolerated. The authors read about 0.1 or less as lethal, 0.1-0.2 as attenuated and 0.2 or more as tolerated.
Substitutions are written as wild-type residue, site number, new residue.
Base changes are numbered along pNL4-3.

mutation,base,other frame,RC
H56N,C5206A,none,0.168
H56Y,C5206T,none,0.115
H56L,A5207T,none,0.0423
I57N,T5210A,none,0.0276
L59Q,T5216A,none,0.0322
L59P,T5216C,none,0.154
G60R,G5218A,none,0.328
G60W,G5218T,none,0.202
G60E,G5219A,none,0.209
D61N,G5221A,none,0.0910
D61G,A5222G,none,0.0255
K63E,A5227G,none,0.0628
K63R,A5228G,none,0.0428
K63I,A5228T,none,0.0442
V65L,G5233C,none,0.0438
V65A,T5234C,none,0.0805
I66V,A5236G,none,0.0366
I66K,T5237A,none,0.0678
I66M,A5238G,none,0.0321
T67A,A5239G,none,0.0268
Y69H,T5245C,none,0.165
G71S,G5251A,none,0.111
G71D,G5252A,none,0.0784
H73N,C5257A,none,0.0713
H73L,A5258T,none,0.0251
T74K,C5261A,none,0.161
G75R,G5263C,none,0.0409
G75E,G5264A,none,0.294
R77K,G5270A,none,0.377
D78H,G5272C,none,0.0863
D78E,C5274A,none,0.0680
W79R,T5275C,none,0.0795
H80P,A5279C,none,0.0370
H80Q,T5280A,none,0.0387
Q83L,A5288T,none,0.0214
G84E,G5291A,none,0.156
V85L,G5293C,none,0.222
V85A,T5294C,none,0.0983
I87L,A5299T,none,0.0359
I87K,T5300A,none,0.0418
I87T,T5300C,none,0.0853
E88V,A5303T,none,0.0464
E88D,A5304T,none,0.0546
W89S,G5306C,none,0.0706
W89C,G5307T,none,0.0361
K91N,A5313T,none,0.0210
K92T,A5315C,none,0.119
K92R,A5315G,none,0.330
R93S,A5319T,none,0.0300
Q97R,A5330G,none,0.0462
Q97L,A5330T,none,0.0335
Q97H,A5331T,none,0.0348
V98L,G5332C,none,0.135
D99N,G5335A,none,0.357
P100H,C5339A,none,0.224
P100L,C5339T,none,0.0309
D101N,G5341A,none,0.453
D101V,A5342T,none,0.0311
L102I,C5344A,none,0.125
L102P,T5345C,none,0.0967
D104N,G5350A,none,0.151
D104G,A5351G,none,0.0584
Q105H,A5355C,none,0.0389
L106I,C5356A,none,0.108
I107V,A5359G,none,0.0355
H108L,A5363T,none,0.0399
L109P,T5366C,none,0.0358
H110L,A5369T,none,0.0170
H110Q,C5370A,none,0.0522
F112S,T5375C,none,0.0564
F112C,T5375G,none,0.0416
D113G,A5378G,none,0.0572
C114Y,G5381A,none,0.142
C114S,G5381C,none,0.140
C114W,T5382G,none,0.192
F115I,T5383A,none,0.0240
F115L,T5385A,none,0.0275
F115L,T5385G,none,0.0377
S116T,T5386A,none,0.0216
S116P,T5386C,none,0.0671
E117V,A5390T,none,0.0302
E117D,A5391T,none,0.0129
S118F,C5393T,none,0.237
A119T,G5395A,none,0.277
A119D,C5396A,none,0.0610
R121G,A5401G,none,0.0120
N122Y,A5404T,none,0.0744
T123S,A5407T,none,0.0363
I124K,T5411A,none,0.0385
I124M,A5412G,none,0.0234
L125I,T5413A,none,0.101
L125F,A5415T,none,0.0471
G126E,G5417A,none,0.345
I128K,T5423A,none,0.0541
I128T,T5423C,none,0.0409
V129A,T5426C,none,0.0553
P131L,C5432T,none,0.0258
R132W,A5434T,none,0.0371
C133S,T5437A,none,0.0240
E134D,A5442T,none,0.0448
Q136L,A5447T,none,0.0805
G138R,G5452A,none,0.0917
G138R,G5452C,none,0.0318
H139D,C5455G,none,0.00943
H139R,A5456G,none,0.0150
N140I,A5459T,none,0.0253
V142I,G5464A,none,0.139
V142A,T5465C,none,0.0772
S144T,T5470A,none,0.0323
S144A,T5470G,none,0.0169
L145Q,T5474A,none,0.0200
Q146K,C5476A,none,0.138
Q146H,G5478C,none,0.0711
L148M,T5482A,none,0.0304
A149T,G5485A,none,0.135
A149E,C5486A,none,0.0811
A149G,C5486G,none,0.0333
A151T,G5491A,none,0.365
A152V,C5495T,none,0.0910
I154K,T5501A,none,0.135
I154T,T5501C,none,0.107
I154M,A5502G,none,0.0746
P156S,C5506T,none,0.261
Q158K,C5512A,none,0.144
I159T,T5516C,none,0.100
K160E,A5518G,none,0.0410
K160R,A5519G,none,0.0947
K160N,G5520T,none,0.0655
P161Q,C5522A,none,0.0708
P162A,C5524G,none,0.0487
P162S,C5524T,none,0.0546
L163S,T5528C,none,0.0407
P164T,C5530A,none,0.0833
S165G,A5533G,none,0.0365
S165C,A5533T,none,0.0352
V166I,G5536A,none,0.187
R167W,A5539T,none,0.0393
R167M,G5540T,none,0.0387
K168E,A5542G,none,0.101
L169V,C5545G,none,0.0900
E171K,G5551A,none,0.539
D172N,G5554A,none,0.260
D172V,A5555T,none,0.0641
R173G,A5557G,none,0.104
R184G,A5590G,Vpr Q11R,0.159
G185R,G5593A,Vpr R12K,0.713
S186R,A5596C,Vpr E13A,0.131
S186T,G5597C,Vpr E13D,0.134
S186I,G5597T,Vpr E13D,0.0978
H187Y,C5599T,Vpr P14L,0.195
H187R,A5600G,Vpr silent,0.0392
H187L,A5600T,Vpr silent,0.0437
M189L,A5605C,Vpr N16T,0.0266
M189I,G5607C,Vpr E17Q,0.522
N190Y,A5608T,Vpr E17V,0.0332
N190T,A5609C,Vpr E17D,0.0971
N190S,A5609G,Vpr silent,0.0498
N190I,A5609T,Vpr E17D,0.0350
N190K,T5610A,Vpr W18R,0.0321
N190K,T5610G,Vpr W18G,0.200
G191R,G5611C,Vpr W18S,0.0438
G191V,G5612T,Vpr W18C,0.133

Extract of 22 entries:

* G75R (base G5263C) -> 0.0409
* S118F (base C5393T) -> 0.237
* D61N (base G5221A) -> 0.0910
* H56N (base C5206A) -> 0.168
* V65A (base T5234C) -> 0.0805
* L59P (base T5216C) -> 0.154
* D104G (base A5351G) -> 0.0584
* S186R (base A5596C, other frame Vpr E13A) -> 0.131
* G138R (base G5452C) -> 0.0318
* E88V (base A5303T) -> 0.0464
* Q146H (base G5478C) -> 0.0711
* D172V (base A5555T) -> 0.0641
* I154T (base T5501C) -> 0.107
* N190I (base A5609T, other frame Vpr E17D) -> 0.0350
* L148M (base T5482A) -> 0.0304
* H110Q (base C5370A) -> 0.0522
* I66M (base A5238G) -> 0.0321
* P162S (base C5524T) -> 0.0546
* L125I (base T5413A) -> 0.101
* G84E (base G5291A) -> 0.156
* V65L (base G5233C) -> 0.0438
* M189L (base A5605C, other frame Vpr N16T) -> 0.0266

Since each clone held several changes (about five per kb), neutral changes can read low.
An index over 1, which the authors read as above wild type, was rare (1.9% of all changes in the genome).